Results of unrelated studies side by side (data: NIAID ChemDB).

All rows: host cell toxicity; cells: PBMC; read by: trypan blue; endpoint: CC50

Neighbouring rows are from separate reports. CCn: concentration that lowers growth or viability of the cells by n%.

| compound | result |
|---|---|
| CN1c2ccccc2C2C1C=C(C#N)C(=O)N2c1ccc([N+](=O)[O-])cc1 | >50 µM |
| [N-]=[N+]=N[C@@H]1C[C@@H](n2cc(F)c(N)nc2=O)O[C@H]1CO | >100 µM |
| CC(=O)N1CCC(C(=O)N(CCCN2CCC(Cc3ccc(C(N)=O)cc3)CC2)c2ccc(C)c(Cl)c2)CC1 | >0.1 µM |
| Cc1cn([C@H]2C[C@H](N=[N+]=[N-])[C@@H](CO)O2)c(=O)[nH]c1=O | >100 µM |
| COc1cc(O)c(CC=C(C)C)c(O)c1C(=O)/C=C/c1ccc(O)cc1 | >121.8 µM |
| N#CC1=CC2Nc3ccccc3C2N(c2ccc([N+](=O)[O-])cc2)C1=O | 80 µM |
| Nc1ncnc2c1ncn2[C@@H]1CC(CO)=C[C@@H]1O | >100 µM |
| COc1cc([N+](=O)[O-])c(S(=O)(=O)[O-])cc1N=N/C(=N\Nc1cc(S(=O)(=O)[O-])c([N+](=O)[O-])cc1OC)C(=O)Nc1ccccc1 | 548 µM |
| Cc1cn([C@@H]2CC(CO)=C[C@H]2O)c(=O)[nH]c1=O | >100 µM |
| O=C(O)CCCCCNC1c2ccc3cc4c5c6c(cc7ccc8cc9cc1c1c9c9c8c7c6c9c6c1c2c3c56)C4 | >1000 µM |
| CC(Cc1nc(-c2ccc(O)c(O)c2)cs1)n1cc(Cl)cn1 | 30 µM |
| O=C1CCC(=O)N1CCCCCCc1ccc2c3ccccc3c3ccccc3c2c1 | 1.2 µM |
| CC(C)=CC[C@@H](O)C1=CC(=O)c2c(O)ccc(O)c2C1=O | 1.9 µM |
| CCCc1cc(=O)oc2c3c(c4c(c12)OC(C)(C)C=C4)O[C@H](C)C[C@@H]3O | 594 µM |

Repeating the first 2 entries:

{"compound": "CN1c2ccccc2C2C1C=C(C#N)C(=O)N2c1ccc([N+](=O)[O-])cc1", "result": ">50 µM"}
{"compound": "[N-]=[N+]=N[C@@H]1C[C@@H](n2cc(F)c(N)nc2=O)O[C@H]1CO", "result": ">100 µM"}